B1: NadA3 […] E62A D63A double mutant (domain or fragment)
chain: not shown
notes: NadA3, N. meningitidis serogroup B strain 2996, […], […] with E62A and D63A; also called NadA3 E62A D63A
B2: NadA3 […] N43A mutant (domain or fragment)
chain: not shown
notes: NadA3, N. meningitidis serogroup B strain 2996, […], […] with N43A

Molecular target: T1, full-length human LOX-1 fused to yellow fluorescent protein, expressed on CHO-K1 cells (human)
T1 construct: LOX-1 (low-density oxidized lipoprotein lectin-like receptor 1), human, full length, on transfected CHO-K1 cells; pEYFP-N1 usually places the YFP at the C-terminus of the insert (surmise); also called low-density oxidized lipoprotein lectin-like receptor 1; LOX-1-expressing cells; source: CHO-K1 cells, transiently transfected (pEYFP-N1 vector), on live cells
Test: flow cytometry on cells; CHO-K1 cells transiently expressing human LOX-1-YFP mixed with NadA3 protein (200 µg/ml) for 30 min at 37°C; detected with mouse polyclonal anti-NadA3 and APC-conjugated secondary antibody
Details: one partner purified

| Binder | percent doubly positive cells (LOX-1 and NadA) |
| --- | --- |
| B1 | 54.3% |
| B2 | 54.3% |
